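Whole-cell growth test on Mycobacterium tuberculosis, read after 3 days in glucose-containing 7H9 medium; the read-out is not stated. Tested at 500 µM. The record gives no direction; compounds that gave an IC50 in retests scored well above the rest, so higher reads as more growth inhibition. Of about 18,000 compounds tested this way, about 1,400 (7.9%) reached 50% or more in at least one test.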

Results are given as percent effect. How 0% and 100% were set is not recorded. Most values in the screen are low, and negative values occur. This is part of a subset picked to be rich in strong results.

structure,Percent Effect
CC(=O)c1cc(C(=O)NCc2cnc(C)cn2)cs1,6.453%
Cn1ncc(C(=O)OC2CCOC2)c1-n1cccc1 (stereo not drawn),-0.9537%
NC(=O)CCNCCc1ccccc1,13.66%
CCNc1ncc(C(=O)N2CCCO2)s1,-1.812%
COc1ccc2nc(NCC(O)CO)ccc2c1 (stereo not drawn),0.5734%
O=C(c1cnsn1)N1CC=C(c2ccccc2)CC1,89.68%
NCc1cnn(-c2ccc(Cl)cc2)c1,38.41%
CCC1CN(Cc2ccno2)CCS1 (stereo not drawn),-10.63%
CNCCCNS(=O)(=O)c1cccc(C)c1C#N,1.721%
O=C(Nc1nc2c(s1)COCC2)c1cnsn1,-6.961%
Cc1cccc(NC(C)Cn2cncn2)n1 (stereo not drawn),-9.363%
CN1C(=O)Cc2ccccc2C1C(=O)N1CCCC1 (stereo not drawn),-3.574%
Cc1ccccc1C(=O)N1CCN(S(C)(=O)=O)[C@@H](C)C1,4.337%
Cc1cnc(N2CCNCC2)s1,16.93%
CN1C(=O)CNc2ccccc21,-29.21%
CC(C)n1cncc1CN1CCN(CCO)CC1,-17.94%
CC(=O)Nc1cccc(OCCNc2ccccn2)c1,45.08%
CC(N)c1ccccc1-n1cccn1 (stereo not drawn),18.75%
COc1cccc(CN(C)CC(C)(C)S(C)(=O)=O)c1,49.21%
COc1ccc(C(N)c2ccc(OC)cc2OC)cc1 (stereo not drawn),104.8%
CC(=O)c1cc[nH]n1,-7.747%
O=C(Cc1c[nH]c2ccccc12)N[C@@H]1CCOC[C@H]1O,-4.901%
Cc1nnc(SCCCNC(=O)c2cnccc2C)s1,28.71%
CCn1nnnc1SCc1cc(C#N)ccc1F,70.1%
C1CC(c2nnc(CN3CCCC3)o2)C1,40.43%
Cc1nc(N(C)C)cc(N2CCN(S(C)(=O)=O)CC2)n1,1.858%
CCC(C)Oc1cc(CN)ccn1 (stereo not drawn),-5.909%
NCCc1nnc(N)o1,0.5903%
NC1CCN(CC(F)F)CC1,-6.291%
CCS(=O)(=O)NCCNC(C)(C)c1nccs1,5.782%
Cc1ccc(NC(=O)NC[C@@H]2C[C@H](F)CN2)cc1C#N,45.75%
Cc1nccn1-c1ccc(C(C)N)cc1 (stereo not drawn),8.207%
CCn1ncc(C(C)N)c1C (stereo not drawn),-0.08521%
O=C(CNC(=O)NCC1CC1)NCCc1ccccc1,-1.924%
CNCC1CCCN1C(=O)c1cccc(C)c1F (stereo not drawn),11.04%
O=C(CSc1cnn[nH]1)Nc1ccncc1,30.91%
CCCN(CCO)CCC(=O)N1CCc2sccc2C1,47.41%
Cc1cnc(CNCC2(O)CNCCOC2)cn1 (stereo not drawn),-24.46%
CCN1CCCC1CNC(=O)c1cc(Cl)ccn1 (stereo not drawn),6.169%
Cn1ccc(C(=O)NCc2nccs2)cc1=O,-5.574%
O=C(NCC1CC1)c1noc(-c2ccccc2F)n1,72.01%
Cc1nc(CCNC(=O)C2CNCCO2)sc1C (stereo not drawn),-2.639%
COc1ncccc1C(=O)NCCN1CCCC(C)C1 (stereo not drawn),12.43%
COc1c(F)cc(CN2CC[C@@H](N)[C@H](O)C2)cc1Cl,57.68%
COCc1nn(CCCN2CCCCC2)c(=O)o1,-4.28%
CCN(CC)C(=O)CCC(=O)NCc1c[nH]nc1C,-2.302%
CN(C)c1nc(N)nc(COC(=O)c2ccsc2)n1,-7.045%
COCCCNC(=O)C(C)N(C)CC(C)C (stereo not drawn),10.4%
Cc1ccc(C(=O)N2CCC(NC(N)=O)CC2)cc1Cl,-10.77%
O=C(NCCCOC(F)F)NCc1cccnc1,-1.799%
CC(C)(C)OC(=O)N1CC2(CCC(CN)O2)C1 (stereo not drawn),67.7%
OCC1(CNCc2ccccc2)CC1,-1.815%
CN(CC(F)(F)F)C(=O)CN1CCCC(CCO)C1 (stereo not drawn),9.9%
COc1ccccc1CNC(=O)COc1nc(C)no1,10.42%
COCCOC1CCN(c2cccc(C)n2)CC1,54.75%
COCCN(C)CCNC(=O)c1cc2ccccc2[nH]1,32.58%
CSCC1CCCN1Cc1cccc(N)n1 (stereo not drawn),20.16%
N#CCCN(CC1CC1)C(=O)c1cc(I)c[nH]1,21.08%
CCN(C(=O)CSc1ccncc1)[C@H]1COC[C@@H]1O,-5.523%
Cn1cc2ccc(CN)cc2n1,15.18%
CCNC(=O)CNc1ccnc2cc(F)ccc12,-2.771%
CCc1cccc(S(=O)(=O)N2CC[C@H](N)C2)c1,59.04%
Cc1cc(CNC(=O)C2CCCCCN2C)n(C)n1 (stereo not drawn),10.77%
Cc1cc(Cl)ccc1NC(=O)CN1CCN(C)CC1,52.23%
Cc1cc(C(=O)Nc2ccnn2C(C)C)on1,9.074%
CCNC(=O)c1ccc(N2CCOCC2)nc1,10.42%
CCC(=O)NC(C)(C#N)C(C)C (stereo not drawn),5.911%
CC(C)CC(N)C(=O)N1CCNC(=O)C1 (stereo not drawn),0.5689%
CC(=O)Nc1ccnn1Cc1ccccc1F,-1.572%
CCC(CNC(=O)c1cnccn1)N1CCCC1 (stereo not drawn),7.733%
NCC(=O)N1CCCC(CCc2ccccc2F)C1 (stereo not drawn),74.68%
C[C@@H]1CN(C(=O)c2ccc(N)nc2)C[C@@]1(O)C1CC1,13.96%
CC1CN(C(=O)CCCNC(=O)c2ccco2)CCO1 (stereo not drawn),6.741%
COCCNC(=O)C(C)Cn1cc(Br)cn1 (stereo not drawn),49.14%
CNCC(C)(CO)CO,-0.1%
CC(=O)NCC1CCN(Cc2cc(C(C)C)no2)C1 (stereo not drawn),1.698%
CN(CC(=O)N1CCCC1)S(=O)(=O)c1ccc(Cl)cc1,49.57%

Measurements from “University of Dundee, Small-Polar-MMV Screening Library” (2021), ChEMBL document CHEMBL3988442.